Compound potency records, mixed from different reports. Data source: NIAID ChemDB in PubChem.

Common to all: host cell toxicity; endpoint: CC50

CCn: concentration that lowers growth or viability of the cells by n%. An empty or dashed field is not shown. Conditions beyond the fields shown may differ between rows.

compound | cell line | method | result
COc1cc(-c2ccccc2)c(O)c(OC)c1O | P-388 | sulforhodamine / absorbance | >50 µM
CCCOC(=O)C(CCSC[C@H]1O[C@@H](n2ccc3c(N)ncnc32)[C@H](O)[C@@H]1O)NC(=O)C(F)(F)F | PRK/E6SM | - | >40 µg/mL
COc1cc([C@@H]2c3cc4c(cc3[C@H](OC(C)=O)[C@@H]3COC(=O)[C@@H]23)OCO4)cc(O)c1O | MEL-28 | - | 5.84 µM
NC(=O)c1ncn([C@@H]2O[C@H](CO)[C@@H](O)[C@H]2O)n1 | PRK/E6SM | - | >400 µg/mL
Cc1cc(O)c2c(c1)C(=O)C=CC2=O | J774A.1 | - | 3.91 µg/mL
CC1Oc2cc(O)c3c(=O)c4ccc(O)c(O)c4oc3c2C1(C)C | MCF-7 | sulforhodamine / absorbance | 2.13 µM
Nc1nc2c(ncn2COC(CO)CO)c(=O)[nH]1 | BCBL-1 | - | 354 µM
C[C@H]1O[C@@H](O[C@H]2[C@@H](O)C[C@H](O[C@H]3CC[C@@]4(C)[C@H](CC[C@@H]5[C@@H]4C[C@@H](O)[C@]4(C)[C@@H](C6=CC(=O)OC6)CC[C@]54O)C3)O[C@@H]2C)C[C@H](O)[C@@H]1O | GMK AH1 | MTT | 285 µM
Cc1ccnc2c1NC(=O)c1cccnc1N2C1CC1 | Lymphocytes | - | >20 µM
COc1cc([C@@H]2c3cc4c(cc3[C@H](OC(C)=O)[C@@H]3COC(=O)[C@@H]23)OCO4)cc2nccnc12 | P-388 | - | 0.56 µM
C[C@H]1O[C@@H](O[C@H]2CC[C@]3(C=O)[C@H]4CC[C@]5(C)[C@@H](C6=CC(=O)OC6)CC[C@]5(O)[C@@H]4CC[C@]3(O)C2)C[C@H](O)[C@@H]1O | GMK AH1 | MTT | >250 µM
COC(=O)[C@H](C)NP(=O)(OC[C@H]1C/C1=C/n1cnc2c(=O)[nH]c(N)nc21)Oc1ccccc1 | MEF | - | >206 µM
Nc1ncnc2c1ncn2C[C@@H](CO)OCP(=O)(O)O | BCBL-1 | - | 191 µM
OC[C@@H]1C[C@@H](O)[C@H](n2cnc3c(NC4CCCCCC4)ccnc32)O1 | Sheep chondrocytes G81092 | MTT | 210 µM
CCCCOc1ccc(Nc2cn(C3C=CC(O)C3)c(=O)n(C3C=CC(O)C3)c2=O)cc1 | Huh7 cells | MTT | >50 µg/mL
Nc1ncnc2c([C@H]3CC[C@@H](CCl)O3)[nH]nc12 | PRK/E6SM | - | >400 µg/mL
OC[C@@H]1CC[C@H](n2cnc3c(NC4CC4)ncnc32)O1 | Sheep chondrocytes G81092 | - | 280 µM
Nc1nc2c(ncn2CCC(CO)CO)c(=O)[nH]1 | BCBL-1 | - | 132 µM
COC(=O)[C@H](C)NP(=O)(OC[C@H]1C/C1=C\n1cnc2c(N)nc(N)nc21)Oc1ccccc1 | H-1 | - | >50 µM
C[C@]12CC[C@H]3[C@@H](CC[C@]4(O)C[C@@H](O[C@@H]5O[C@@H](O)[C@H](O)[C@@H](O)[C@H]5O)CC[C@]34C=O)[C@@]1(O)CC[C@@H]2C1=CC(=O)OC1 | GMK AH1 | MTT | >250 µM
COc1ccc(-c2cc(OC)c(O)c(OC)c2O)cc1 | P-388 | sulforhodamine / absorbance | 37.87 µM
Nc1ccn(C[C@@H](CO)OCP(=O)(O)O)c(=O)n1 | BCBL-1 | - | 340 µM
CO[C@H]1/C=C/O[C@@]2(C)Oc3c(C)c(O)c4c(O)c(c(/C=N/N5CCN(C)CC5)c(O)c4c3C2=O)NC(=O)/C(C)=C\C=C\[C@H](C)[C@H](O)[C@@H](C)[C@@H](O)[C@@H](C)[C@H](OC(C)=O)[C@@H]1C | Huh7 cells | MTT | >50 µg/mL
COc1cc(/C=C/c2ccc3ccc(C(=O)O)c(O)c3n2)cc(O)c1O | HeLaP4 | MTT | >100 µM
OC[C@H]1O[C@@H](n2cnc3c(NC4CC4)nc(Cl)nc32)C[C@@H]1O | Sheep chondrocytes G81092 | MTT | 234 µM
O=C1OC(Oc2ccc(-c3ccccc3)cc2)C(NCCNc2ccnc3cc(Cl)ccc23)C1Br | CHO | MTT | 1.82 µg/mL
COc1cc([C@@H]2c3cc4c(cc3[C@H](OC(C)=O)[C@@H]3COC(=O)[C@@H]23)OCO4)cc2nc3ccccc3nc12 | MEL-28 | - | 1 µM
Cc1cccc(Nc2c[nH]c(=O)[nH]c2=O)c1 | Huh7 cells | MTT | >50 µg/mL
Nc1ccnc2c1ncn2[C@@H]1O[C@H](CO)C[C@H]1O | Sheep chondrocytes G81092 | MTT | >400 µM
CO[C@H]1[C@@H](O)C[C@H](O[C@H]2[C@@H](O)C[C@H](O[C@H]3[C@@H](O)C[C@H](O[C@H]4CC[C@@]5(C)[C@H](CC[C@@H]6[C@@H]5CC[C@]5(C)[C@@H](C7=CC(=O)OC7)CC[C@]65O)C4)O[C@@H]3C)O[C@@H]2C)O[C@@H]1C | GMK AH1 | MTT | >250 µM
CC(C)=CC[C@H]1C[C@@]2(C[C@H]3CCC(C)(C)C=C3C)C(=O)[C@](C(=O)c3ccccc3)(C(=O)C3=C2OC(C)(C)CC3)C1(C)C | MCF-7 | sulforhodamine / absorbance | >50 µM
COc1cccc(-c2nn(-c3ccccc3)cc2/C=C/c2nc3sccn3c(=O)c2-c2ccc(C#N)cc2)c1 | Monocyte-derived macrophages | MTT | 189 µg/mL
OC[C@H]1O[C@@H](n2cnc3c(NC4CCCCCC4)nc(Cl)nc32)[C@H](O)[C@@H]1O | Sheep chondrocytes G81092 | - | 100 µM
COc1cc([C@@H]2c3cc4c(cc3[C@H](O)[C@H]3COC(=O)[C@H]23)OCO4)cc(OC)c1OC | HT-29 | - | 0.012 µM
COC(=O)[C@H](C)NP(=O)(OC[C@H]1C/C1=C/n1cnc2c(OC)nc(N)nc21)Oc1ccccc1 | MEF | - | 126 µM
CO[C@H]1C[C@H](O[C@H]2CC[C@]3(C=O)[C@H]4CC[C@]5(C)[C@@H](C6=CC(=O)OC6)CC[C@]5(O)[C@H]4CC[C@]3(O)C2)O[C@H](C)[C@H]1O | GMK AH1 | MTT | >250 µM
C/C(=C\C=C\C(C)[C@H]1CC[C@@]2(C)[C@@H]3CC[C@H]4C(C)(C)C(=O)CC[C@]4(C)C3=CC[C@]12C)C(=O)O | P-388 | sulforhodamine / absorbance | >50 µM
CC(=O)O[C@H]1C[C@H](O[C@H]2[C@@H](O)C[C@H](O[C@H]3[C@@H](O)C[C@H](O[C@H]4CC[C@@]5(C)[C@H](CC[C@@H]6[C@@H]5CC[C@]5(C)[C@@H](C7=CC(=O)OC7)CC[C@]65O)C4)O[C@@H]3C)O[C@@H]2C)OC(C)[C@H]1O[C@@H]1O[C@H](CO)[C@@H](O)[C@H](O)[C@H]1O | GMK AH1 | MTT | >250 µM
OC[C@H]1O[C@@H](n2cnc3c(NC4CC4)ncnc32)C[C@@H]1O | MDBK | - | >400 µM
CC(C)OC(=O)C(N)CCSC[C@H]1O[C@@H](n2ccc3c(N)ncnc32)[C@H](O)[C@@H]1O | PRK/E6SM | - | 40 µg/mL
Nc1ncc2c(ncn2COC(CO)CO)n1 | BCBL-1 | - | 24 µM
CCCOC(=O)C(N)CCSC[C@H]1O[C@@H](n2ccc3c(N)ncnc32)[C@H](O)[C@@H]1O | PRK/E6SM | - | 400 µg/mL
COc1cc([C@@H]2c3cc4c(cc3[C@H](OC(C)=O)[C@@H]3COC(=O)[C@@H]23)OCO4)cc2c1OC1(N3CCOCC3)CCCCC1O2 | P-388 | - | 4.33 µM
Nc1cc(Cl)nc2c1ncn2[C@@H]1O[C@H](CO)C[C@H]1O | MDBK | - | 140 µM
COC(=O)[C@H](C)NP(=O)(OCC1C/C1=C/n1cnc2c(N)ncnc21)Oc1ccccc1 | 2.2.15 | - | 0.3 µM
CC(C)=CCC[C@@H](C)[C@@H]1CC[C@]2(C)C3=C(CC[C@@]12C)[C@@]1(C)CC[C@H](O)C(C)(C)[C@@H]1CC3 | HT-29 | sulforhodamine / absorbance | >50 µM
COCC(=O)NC(CCSC[C@H]1O[C@@H](n2ccc3c(N)ncnc32)[C@H](O)[C@@H]1O)C(=O)O | PRK/E6SM | - | 400 µg/mL
Cc1ccccc1-c1nn(-c2ccccc2)cc1/C=C/c1nc2sccn2c(=O)c1-c1ccc(C#N)cc1 | Monocyte-derived macrophages | MTT | 381 µg/mL
O=c1[nH]c(=O)n(C2C=CC(O)C2)cc1Nc1ccc(Oc2ccccc2)cc1 | Vero cells | MTT | >50 µg/mL
Cn1c2ccccc2c2c3c(c4c5ccccc5n(CCC#N)c4c21)CNC3=O | CD4+ T CELLS | - | 31 µM
N#Cc1ccc(-c2c(/C=C/c3cn(-c4ccc(Cl)cc4)nc3-c3ccccc3)nc3sccn3c2=O)cc1 | Monocyte-derived macrophage | MTT | 172 µg/mL

4 of the rows above, restated:

compound	cell line	method	result
CC(C)=CCC[C@@H](C)[C@@H]1CC[C@]2(C)C3=C(CC[C@@]12C)[C@@]1(C)CC[C@H](O)C(C)(C)[C@@H]1CC3	HT-29	sulforhodamine / absorbance	>50 µM
COC(=O)[C@H](C)NP(=O)(OC[C@H]1C/C1=C/n1cnc2c(=O)[nH]c(N)nc21)Oc1ccccc1	MEF	-	>206 µM
CC(C)OC(=O)C(N)CCSC[C@H]1O[C@@H](n2ccc3c(N)ncnc32)[C@H](O)[C@@H]1O	PRK/E6SM	-	40 µg/mL
CC(C)=CC[C@H]1C[C@@]2(C[C@H]3CCC(C)(C)C=C3C)C(=O)[C@](C(=O)c3ccccc3)(C(=O)C3=C2OC(C)(C)CC3)C1(C)C	MCF-7	sulforhodamine / absorbance	>50 µM